Patent US20220362276A1, “Small Molecule Inhibitors of Viral Replication” (The Trustees of Princeton University, priority 2019, published 2022)

Tested on: p6/Gluc[Y1320H]
Assay: Dose titration against mutant replicon p6/Gluc[Y1320H]

## COc1cc(O)cc(O)c1C(=O)c1ccccc1 [isocotoin, 4-benzoyl-5-methoxybenzene-1,3-diol]
  sensitivity of p6/Gluc[Y1320H], in words: higher sensitivity to isocotoin than to ribavirin
